Anti-infective test results gathered from many reports (values: NIAID ChemDB through PubChem).

All rows: whole-cell or culture tests; species: Mycobacterium tuberculosis

Lines come from different laboratories, so protocols vary. A number after MIC or MFC names an inhibition level or a share of isolates. Percent inhibition refers to the dose given; in toxicity tests it is the harm to the cells. MIC bound comes from a single tested concentration. ECn: concentration that inhibits the pathogen or its effect by n%. An empty or dashed field is not shown.

SMILES	read by	cell line	dose	measure	strain	mutations	result
S=C(Nc1ccccc1)N1N=C(c2ccccc2)CC1c1ccc(Cl)cc1	visual reading			MBC	H37Ra		>511 µM
CCCSc1nc(C(N)=O)cnc1CCC			12.5 µg/mL	inhibition	H37Rv		<90%
CCCCCCC(/C=C/c1ccc(Cl)c(Cl)c1)=N\NC(=O)C[N+](C)(C)C	BACTEC			MIC bound	H37Rv		>12.5 µg/mL
COc1ccc(OC)c(/C=C/C(=O)c2cc3c(cc2O)OC2(CCN(C(=O)OC(C)(C)C)CC2)CC3=O)c1	agar			MIC	H37Rv		>25 µg/mL
CCSc1nnnn1-c1ccc(C)c(C)c1				MIC	H37Rv		250 µM
COC(=O)C1=C(C)N(c2ccccc2)C(C)=C(C(=O)OC)C1c1cccc(Oc2ccccc2)c1				MIC	H37Rv		>6.25 µg/mL
Cc1cc(C)c(-n2nnnc2SC(C)C)c(C)c1				MIC	H37Rv		125 µM
COc1cccc(NC(=O)C2=C(C)NC(C)=C(C(=O)Nc3cccc(OC)c3)C2c2ccc(Cl)cc2)c1				MIC	H37Rv		>12.5 µg/mL
COc1c2c(c(OC)c3c(=O)c4ccccc4[nH]c13)OCO2	BACTEC		12.5 µg/mL	inhibition	H37Rv		5%
CC1=C(C(=O)Nc2ccc(F)cc2)C(c2ccc(Cl)cc2)C(C(=O)Nc2ccc(F)cc2)=C(C)N1				MIC	H37Rv		>6.25 µg/mL
Cc1ccc(C2CC(c3ccccc3)=NN2C(=S)Nc2ccccc2)cc1	MTT			MIC	H37Ra		17 µM
C[C@]1(COc2ccc(N3CCC(Oc4ccc(OC(F)(F)F)cc4)CC3)cc2)Cn2cc([N+](=O)[O-])nc2O1				MIC	UT29		0.024 µg/mL
COc1ccccc1C1CC(c2ccccc2)=NN1C(=O)c1ccc(O)cc1	MTT			MIC	H37Ra		134 µM
NNC(=O)c1ccncc1				MIC	MTB21 (S)		0.12 µg/mL
CCCCSc1nc(C(N)=S)cnc1CCCC				MIC	H37Rv		>12.5 µg/mL
CCOC(=O)N1CCN(c2ccc(C3CC(c4ccc([N+](=O)[O-])o4)=NO3)cc2)CC1				MIC	CDC1551		0.1 µg/mL
Nc1nc2nn(-c3ccc(C(=O)NC(CCC(=O)O)C(=O)O)cc3)nc2c(=O)[nH]1	BACTEC		12.5 µg/mL	inhibition	H37Rv		1%
NNC(=O)c1ccncc1	agar			MIC	MDR-TB		45.57 µM
CSC1=NN(C(C)=O)C(c2ccncc2)S1	resazurin		6.25 µg/mL	inhibition	H37Rv		-55%
CCCCSc1nc(C(N)=S)cnc1CC(C)C			12.5 µg/mL	inhibition	H37Rv		<90%
CCCCCCCCCCCCCCC/C=C\C(=O)N(O)CCCC[C@H](NC(=O)[C@@H]1COC(c2ccccc2O)=N1)C(=O)O[C@@H](C)CC(=O)N[C@H]1CCCCN(O)C1=O				EC50	H37Rv		<12.5 µg/mL
O=c1[nH][nH]c(=O)c2c1nc(SCc1ccccc1Cl)n2Cc1ccccc1	BACTEC		12.5 µg/mL	inhibition	H37Rv		0%
S=C(Nc1ccccc1)N1N=C(c2ccccc2)CC1c1ccccc1Cl	visual reading			MBC	H37Ra		>511 µg/mL
Cc1noc(-c2nc(C)c3c(c2N)C(=O)N(Cc2cccc(Cl)c2)C3=O)n1	resazurin / visual reading			MIC90	H37Rv-MA	deltaCydKO	<0.019 µM
CCCCc1ncc(C(N)=O)nc1SC			12.5 µg/mL	inhibition	H37Rv		<90%
NNC(=O)c1ccncc1				MIC	ATCC 27294		0.22 µM
Cc1cc(O)c2c(c1)C(=O)C=C(c1c(C)cc(O)c3c1C(=O)C=CC3=O)C2=O				MIC	H37Rv		10 µg/mL
CC1=C(C(=O)Nc2cccc(C(F)(F)F)c2)C(c2cccc(Br)c2)C(C(=O)Nc2cccc(C(F)(F)F)c2)=C(C)N1				MIC	H37Rv		>6.25 µg/mL
CCC(S)CC(=O)O				MIC	H37Rv		10 µg/mL
COc1ccc(/C=C/C(=O)c2cc3c(cc2O)OC2(CCCCC2)CC3=O)c(OC)c1	agar			MIC	H37Rv		>25 µg/mL
CCn1cc(C(=O)O)c(=O)c2cnc(N3CCCC3)nc21	resazurin		6.25 µg/mL	inhibition	H37Rv		13%
CCCCSc1nnnn1-c1ccc(C)c(C)c1				MIC	H37Rv		30 µM
CC(C)CCOc1ccc(NC(=S)Nc2ccc(OCCC(C)C)cc2)cc1				MIC			7 µM
Nc1nc(Sc2ccc([N+](=O)[O-])c3nonc23)c2ncn([C@@H]3O[C@H](CO)[C@@H](O)[C@H]3O)c2n1	resazurin		6.25 µg/mL	inhibition	H37Rv		-7%
CC1=C(C(=O)Nc2ccc([N+](=O)[O-])cc2)C(c2c3ccccc3cc3ccccc23)C(C(=O)Nc2ccccc2F)=C(C)N1				MIC	H37Rv		>6.25 µg/mL
Cc1cccc(C(N)=Nc2nc(-c3ccccn3)cc3ccccc23)c1				MIC	J-2749		0.5 µg/mL
CCSCC(N)C(=O)O				MIC	H37Rv		>100 µg/mL
CCN(CC)CCCC(C)Nc1ccnc2cc(Cl)ccc12	broth dilution / radiometric	human red blood cells		EC50	H37Rv		0.03 µM
S=C(Nc1ccccc1)N1N=C(c2ccccc2)CC1c1ccc(Cl)cc1Cl	MTT			MIC	H37Ra		471 µM
Cc1cc(O)c2c(c1)C(=O)C(c1c(C)cc3c(c1O)C(=O)C=CC3=O)=CC2=O				MIC	H37Rv		8 µg/mL
Nc1nc(-c2cccc(S(=O)(=O)F)c2)cs1	BACTEC			MIC bound	H37Rv		>6.25 µg/mL
CN(C)C/C=C(/c1ccc(-c2ccc(Br)cc2)cc1)c1cccs1				MIC	ATCC 27294		20.2 µM
Cc1c(CN2CCSCC2)cc(-c2ccc(F)cc2)n1-c1ccc(Cl)cc1				MIC	103471		2 µg/mL
CC(=O)/C(N=Nc1ccc(C(=O)N/N=C/c2ccncc2)cc1)=C(\C)O			12.5 µg/mL	inhibition	H37Rv		16%
CCC(S)CC(=O)OC				MIC	H37Rv		25 µg/mL
CC(=O)OC(C)(C)/C=C/C(=O)[C@](C)(O)[C@H]1[C@H](O)C[C@@]2(C)[C@@H]3CC=C4[C@@H](C[C@H](O)C(=O)C4(C)C)[C@]3(CO)C(=O)C[C@]12C	BACTEC			MIC bound	H37Rv		>12.8 µg/mL
CC(C)Cc1ncc(C(N)=S)nc1Sc1ccccc1				MIC	H37Rv		>6.25 µg/mL
COc1ccc(/C=C/C(=O)c2cc3c(cc2O)OC2(CCCCC2)CC3=O)cc1	agar			MIC	H37Rv		>25 µg/mL
CC(C)(C)OC(=O)NC(Cc1c[nH]c2ccccc12)C(=O)NC(Cc1ccccc1)C(=O)NN	BACTEC		12.5 µg/mL	inhibition	H37Rv		0%
CO[C@H]1/C=C/O[C@@]2(C)Oc3c(C)c(O)c4c(O)c(c5c(c4c3C2=O)NC2(CCN(CC(C)C)CC2)N=5)=NC(=O)/C(C)=C\C=C\[C@H](C)[C@H](O)[C@@H](C)[C@@H](O)[C@@H](C)[C@H](OC(C)=O)[C@@H]1C				MIC90	22 strains		12.5 µg/mL
CC(C)(C)OC(=O)N1CCC2(CC1)CC(=O)c1cc(C(=O)/C=C/c3ccccc3Cl)c(O)cc1O2	agar			MIC	H37Rv		12.5 µg/mL
CCN1CN(NC(=O)c2ccncc2)CSC1=S				MIC			25 µg/mL
CCSSSCC				MIC	H37Rv		>100 µg/mL
CC1=C(C(=O)Nc2ccc(F)cc2)C(c2ccc(O)cc2)C(C(=O)Nc2ccc(F)cc2)=C(C)N1				MIC	H37Rv		>6.25 µg/mL
COc1ccc2nc3cc(Cl)ccc3c(Nc3ccc(S(=O)(=O)Nc4nccs4)cc3)c2c1				EC50	H37Rv		<6.25 µg/mL
C=C(C)C1Cc2c(ccc3c(=O)c4c(oc23)COc2cc(OC)c(OC)cc2-4)O1	BACTEC		12.5 µg/mL	inhibition	H37Rv		-9%
CO/N=C(/C(=O)N[C@@H]1C(=O)N2C(C(=O)[O-])=C(C[N+]3(C)CCCC3)CS[C@H]12)c1csc(N)n1			32 µg/mL	inhibition	13 strains		54%
COc1ccc2[nH]c(C)c(CN(C(C)=O)C(C)=O)c(=O)c2c1	BACTEC		12.5 µg/mL	inhibition	H37Rv		38%
COc1ccc2nc3ccccc3c(Nc3ccc(/C(N)=N/NC(N)=S)cc3)c2c1				EC50	H37Rv		>6.25 µg/mL
CCCNCC(=O)O[C@]1(CC)C(=O)OCc2c1cc1n(c2=O)Cc2cc3ccccc3nc2-1	BACTEC		12.5 µg/mL	inhibition	H37Rv		-2%
Nc1ccc(C(=O)N/N=C/c2ccccc2F)cc1				MIC	H37Rv		>12.5 µg/mL
Cn1c(=O)c2c(nc(Cl)n2Cc2ccc([N+](=O)[O-])cc2)n(C)c1=O	resazurin		6.25 µg/mL	inhibition	H37Rv		-5%
O=C(c1ccc(O)cc1)N1N=C(c2ccccc2)CC1c1ccc(Cl)cc1	visual reading			MBC	H37Ra		266 µM
CC1COc2c(N3CCN(C)CC3)c(F)cc3c(=O)c(C(=O)O)cn1c23				MIC	H37Rv		0.707 µg/mL
CN1CN(NC(=O)c2ccncc2)CSC1=S				MIC			100 µg/mL
Nc1ccc(C(=O)N/N=C/c2ccc([N+](=O)[O-])cc2)cc1				MIC	H37Rv		>12.5 µg/mL
CCSc1nnnn1-c1cccc(C)c1				MIC	H37Rv		1000 µM
CCc1cc(C(N)=S)ccn1				MIC			62 µM
CC(=O)NNc1nc(C)c(C(=O)C=Cc2ccccc2Cl)s1	resazurin		6.25 µg/mL	inhibition	H37Rv		32%
CCCSc1nc(C(N)=S)cnc1C(C)(C)C			12.5 µg/mL	inhibition	H37Rv		<90%
CC1(O)c2ccccc2-c2ccccc2C1(C)O	resazurin		6.25 µg/mL	inhibition	H37Rv		-31%
COc1ccc2nc3ccccc3c(Nc3ccc(/C(N)=N/NC(N)=O)cc3)c2c1				EC50	H37Rv		>6.25 µg/mL
CCN(CC)C(=S)C(N)=S				MIC			250 µM
COc1cccc(CN2C(=O)c3c(C)nc(-c4nc(C)no4)c(N)c3C2=O)c1	resazurin / visual reading			MIC90	H37Rv-MA	Ala317Thr	>10 µM
CN1CCN(c2c(F)cc3c(=O)c(C(=O)O)cn(CCF)c3c2F)CC1				MIC50			1.56 µg/mL
COc1ccc(CCN2COc3ccc4ccc(=O)oc4c3C2)cc1OC	BACTEC			MIC	H37Rv		≥12.5 µg/mL
CCC(=S)CC1C(=O)NC(=S)N1C(C)=O				MIC	H37Rv		>100 µg/mL
O=C(NCc1cnccn1)c1ccco1	BACTEC		12.5 µg/mL	inhibition	H37Rv		0%
COc1ccc2nc3cc(Cl)ccc3c(Nc3ccc(S(=O)(=O)Nc4ncccn4)cc3)c2c1				EC50	H37Rv		<6.25 µg/mL
O=C(/C=C/c1ccccc1F)c1cc2c(cc1O)OC1(CCCCC1)CC2=O	agar			MIC	H37Rv		12.5 µg/mL
Cc1ccc(NC(=O)NCc2ccco2)cc1[N+](=O)[O-]	BACTEC		12.5 µg/mL	inhibition	H37Rv		80%
COc1ccc2nc3ccccc3c(Nc3ccc(C(C)=O)cc3)c2c1				EC50	H37Rv		>6.25 µg/mL
Nc1nc2c(c(=O)[nH]1)CN(c1ccc(S(=O)(=O)O)cc1)CN2	BACTEC			MIC bound	H37Rv		>12.5 µg/mL
Cc1cc(O)c2c(c1)C(=O)C=C(C1=CC(=O)c3cc(C)cc(O)c3C1=O)C2=O				MIC	H37Rv		100 µg/mL
CSc1nc(C(N)=S)cnc1C(C)(C)C			12.5 µg/mL	inhibition	H37Rv		72%
NC(=S)C(=S)N1CCOCC1				MIC			31 µM
CCCSc1nnnn1-c1cccc(C)c1				MIC	H37Rv		500 µM
CCCc1ncc(C(N)=O)nc1SCC			12.5 µg/mL	inhibition	H37Rv		<90%

12 of the rows above, restated:

SMILES	read by	cell line	dose	measure	strain	mutations	result
COc1ccc(/C=C/C(=O)c2cc3c(cc2O)OC2(CCCCC2)CC3=O)c(OC)c1	agar			MIC	H37Rv		>25 µg/mL
Cc1cc(C)c(-n2nnnc2SC(C)C)c(C)c1				MIC	H37Rv		125 µM
CSC1=NN(C(C)=O)C(c2ccncc2)S1	resazurin		6.25 µg/mL	inhibition	H37Rv		-55%
CCC(S)CC(=O)O				MIC	H37Rv		10 µg/mL
CCC(=S)CC1C(=O)NC(=S)N1C(C)=O				MIC	H37Rv		>100 µg/mL
CCN(CC)CCCC(C)Nc1ccnc2cc(Cl)ccc12	broth dilution / radiometric	human red blood cells		EC50	H37Rv		0.03 µM
CCCCCCC(/C=C/c1ccc(Cl)c(Cl)c1)=N\NC(=O)C[N+](C)(C)C	BACTEC			MIC bound	H37Rv		>12.5 µg/mL
CCCSc1nc(C(N)=S)cnc1C(C)(C)C			12.5 µg/mL	inhibition	H37Rv		<90%
CCSCC(N)C(=O)O				MIC	H37Rv		>100 µg/mL
COc1cccc(NC(=O)C2=C(C)NC(C)=C(C(=O)Nc3cccc(OC)c3)C2c2ccc(Cl)cc2)c1				MIC	H37Rv		>12.5 µg/mL
Cc1cc(O)c2c(c1)C(=O)C=C(C1=CC(=O)c3cc(C)cc(O)c3C1=O)C2=O				MIC	H37Rv		100 µg/mL
Cc1ccc(C2CC(c3ccccc3)=NN2C(=S)Nc2ccccc2)cc1	MTT			MIC	H37Ra		17 µM